PubChem BioAssay AID504761 | Drosophila RNAi Screening Center | 2011
Assay: 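Fly genes whose silencing reduces dengue virus type 2 infection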 (primary screen). Cell system: D.Mel-2 cells from Drosophila. Reagents: long dsRNA against Drosophila genes. Challenge: infection with dengue virus type 2; dose and infection time not stated. Measurement: 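Cells stained for dengue envelope protein and imaged; percent of infected cells per well on duplicate plates, ranked by infection, with stained nuclei counted for cell number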. Direction: infection score: higher = more virus-infected cells; cell count: higher = more cells in the well. Active means: 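Low infection ranks in the two replicates (chance level up to 0.065) followed by a retest with a 1.5-fold or larger significant decrease, p below 0.05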. Calls: active = confirmed: knock-down lowers infection; inactive = not picked or not confirmed.
In all, the deposit lists about 22,000 reagents; below is a random part of those with a known target gene and a result. Over the whole deposit, 116 (0.52%) got an active call. 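Calls depend on retest data that are not deposited; infection was ranked per plate without normalising between plates; the unit of the infection score is not given.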 Raw values vary from plate to plate and are shown uncorrected. Unmarked entries are inactive. Not given: the amount of reagent, the time to read-out.

| Gene | DRSC id | infection score, replicate 1 | infection score, replicate 2 | cell count, replicate 1 | cell count, replicate 2 |
| --- | --- | --- | --- | --- | --- |
| CG43999 | DRSC14605 | 2.25 | 0.77 | 6260 | 522 |
| dpr7 (defective proboscis extension response 7) | DRSC17109 | 3.5 | 0.92 | 6575 | 6720 |
| dpr7 (defective proboscis extension response 7) | DRSC26544 | 4.92 | 6.09 | 6345 | 6596 |
| CG1138 | DRSC12530 | 8.65 | 25.4 | 6972 | 5959 |
| CG2065 | DRSC06813 | 13.8 | 7.72 | 5742 | 6980 |
| CG2065 | DRSC21328 | 5.38 | 1.45 | 6490 | 6823 |
| CG2065 | DRSC29164 | 14.3 | 21.2 | 1303 | 5615 |
| Lztr1 (Leucine zipper like transcription regulator 1) | DRSC18176 | 9.13 | 9.06 | 3306 | 5208 |
| Lztr1 (Leucine zipper like transcription regulator 1) | DRSC18647 | 5.2 | 8.53 | 1327 | 5335 |
| Lztr1 (Leucine zipper like transcription regulator 1) | DRSC26706 | 2.62 | 10.3 | 6309 | 5504 |
| p (pink) | DRSC16560 | 8.17 | 9.07 | 2498 | 1466 |
| p (pink) | DRSC27891 | 3.69 | 7.41 | 7082 | 6479 |
| CG2694 | DRSC18470 | 32.8 | 7.05 | 6345 | 6567 |
| CtsB (Cathepsin B) | DRSC19361 | 9.9 | 12.6 | 7171 | 7059 |
| MED11 (Mediator complex subunit 11) | DRSC23091 | 7.21 | 40.2 | 5212 | 3995 |
| MED11 (Mediator complex subunit 11) | DRSC25948 | 5.53 | 7.33 | 6624 | 6437 |
| CG15870 | DRSC06588 | 3.37 | 14.4 | 6677 | 3710 |
| CG15870 | DRSC26344 | 11 | 5.65 | 4616 | 6443 |
| Lsd-1 (Lipid storage droplet-1) | DRSC14236 | 4.69 | 5.8 | 6097 | 6190 |
| CG15480 | DRSC02490 | 24.1 | 10.4 | 5249 | 4545 |
| CG15480 | DRSC24919 | 8.41 | 10.3 | 5767 | 5796 |
| wdb (widerborst) | DRSC14163 | 9.64 | 4.22 | 5402 | 6377 |
| CG14154 | DRSC10156 | 0.73 | 1.03 | 6062 | 6135 |

Targets listed so far whose gene name starts with D or d:
| Gene | DRSC id | infection score, replicate 1 | infection score, replicate 2 | cell count, replicate 1 | cell count, replicate 2 |
| --- | --- | --- | --- | --- | --- |
| dpr7 (defective proboscis extension response 7) | DRSC17109 | 3.5 | 0.92 | 6575 | 6720 |
| dpr7 (defective proboscis extension response 7) | DRSC26544 | 4.92 | 6.09 | 6345 | 6596 |
